What was measured:
Plasmodium falciparum [1] = assay: Antiplasmodial activity against chloroquine-sensitive Plasmodium falciparum D10 assessed as inhibition of parasite LDH activity after 72 hrs by spectrophotometry
Plasmodium falciparum [2] = assay: Antiplasmodial activity against chloroquine-resistant Plasmodium falciparum W2 assessed as inhibition of parasite LDH activity after 72 hrs by spectrophotometry

Work on `NCCCO[N+](=O)[O-]` yielded an IC50 (Plasmodium falciparum [1]) greater than 5 µM and an IC50 (Plasmodium falciparum [2]) greater than 5 µM.

Reference: ChEMBL document CHEMBL1770125, “Amodiaquine analogues containing NO-donor substructures: synthesis and their preliminary evaluation as potential tools in the treatment of cerebral malaria” (Eur J Med Chem, 2011)
